# Measurements reported in PubChem BioAssay AID504761 (Drosophila RNAi Screening Center, 2011)
# Test: 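Genome-wide fly cell screen for genes dengue virus requires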 (primary screen)
# Cells: D.Mel-2 cells from Drosophila
# Reagents: long dsRNA against Drosophila genes
# Treatment: infection with dengue virus type 2; dose and infection time not stated
# Measurement: 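Cells stained for dengue envelope protein and imaged; percent of infected cells per well on duplicate plates, ranked by infection, with stained nuclei counted for cell number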
# Reading the numbers: infection score: higher = more virus-infected cells; cell count: higher = more cells in the well
# Active means: 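Low infection ranks in the two replicates (chance level up to 0.065) followed by a retest with a 1.5-fold or larger significant decrease, p below 0.05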
# Meaning of the calls: active = confirmed: knock-down lowers infection; inactive = not picked or not confirmed
# The screen tested about 22,000 reagents; below is an unselected part of those with a known target gene and a result. Of all reagents, 116 (0.52%) were called active. 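Calls depend on retest data that are not deposited; infection was ranked per plate without normalising between plates; the unit of the infection score is not given.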 The raw values are shown without normalisation. A plus sign joins genes that one reagent is predicted to hit. Further read-outs or replicates are left out here. Not given: the amount of reagent, the time to read-out.
target,amplicon,"infection score, replicate 1","infection score, replicate 2","cell count, replicate 1",Outcome
pxb,DRSC13110,7.49,3.61,5650,inactive
pxb,DRSC14996,5.74,15.9,4805,inactive
pxb,DRSC14997,6.81,4.91,6215,inactive
pxb,DRSC22225,0.49,0.66,6970,active
pxb,DRSC25214,2.22,3.75,6403,inactive
CG9705,DRSC11094,4.03,2.86,6571,inactive
Lcp9,DRSC04287,2.29,12.6,6667,inactive
Tengl2,DRSC21968,1.69,2.09,6584,inactive
Tengl2,DRSC29284,1.7,20.2,825,inactive
GluRIB + CG42509 (retired record),DRSC10258,2.98,2.89,6038,inactive
GluRIB + CG42509 (retired record),DRSC11177,1.43,0.96,6381,inactive
GluRIB + CG42509 (retired record),DRSC25464,3.63,4.15,6254,inactive
Ir60b,DRSC04217,4.14,8.54,6479,inactive
CDase,DRSC14932,4.82,40,6019,inactive
CG10062,DRSC05960,17.9,4.46,5818,inactive
CG10062,DRSC22535,4.9,11,6367,inactive
CG10062,DRSC24932,4.2,8.43,7163,inactive
CG3847,DRSC17444,2.01,7.66,6456,inactive
CG3847,DRSC18327,2.66,4.87,5071,inactive
CG3847,DRSC26193,6.66,5.23,5090,inactive
CG10029,DRSC12498,1.68,9.14,6890,inactive
Pak3,DRSC15017,9.67,6.07,5883,inactive
Pak3,DRSC26832,2.58,9.2,5692,inactive
CAH6,DRSC15505,7.28,2.91,2529,inactive
CG42749,DRSC18091,3.18,3.07,6157,inactive
CG42749,DRSC18092,18.4,15.6,5702,inactive
CG42749,DRSC29102,23.6,15.8,4773,inactive
GLS,DRSC07261,16.7,14.6,6468,inactive
GLS,DRSC25962,1.34,1.76,6693,inactive
CG7168,DRSC16208,9.54,22.9,6203,inactive
isoQC,DRSC11790,4.65,2.53,6427,inactive
isoQC,DRSC28241,3.69,16,786,inactive
CG15641,DRSC19677,0.71,1.77,6466,inactive
imd,DRSC05928,9.36,11,6687,inactive
imd,DRSC26032,12.3,3.64,6051,inactive
Dnah3,DRSC08130,0.35,0.79,5700,inactive
Dnah3,DRSC08513,1.75,1.23,6129,inactive
Dnah3,DRSC28789,10.2,9.32,2599,inactive
CG16704,DRSC00475,2.66,7.49,6583,inactive
disp,DRSC12376,3.76,13.1,6540,inactive
Toll-7,DRSC07563,0.53,1.41,5637,inactive
Toll-7,DRSC29640,17.6,12.7,5961,inactive
Drsl4,DRSC08034,0.14,0.49,6514,inactive
Drsl4,DRSC27159,27.8,16.7,5071,inactive
ppk15,DRSC14733,14.5,,3383,inactive
ppk15,DRSC27947,11.4,12.1,6200,inactive
CG3788,DRSC04418,3.76,7.59,6230,inactive
CG3788,DRSC24502,1.62,2.31,6046,inactive
Oseg5,DRSC03209,2.21,5.77,6321,inactive
Rsph4a,DRSC04338,20.7,37.4,6153,inactive
Rsph4a,DRSC28287,10.8,1.47,2448,inactive
Roc2,DRSC07313,14.5,11.6,6058,inactive
Roc2,DRSC27174,11.3,37.3,6734,inactive
Pxt,DRSC17040,1.02,0.06,5690,inactive
AdipoR,DRSC15767,2.28,8.13,6575,inactive
AP-1sigma,DRSC15899,2.99,7.04,6398,inactive
MED19,DRSC10516,10.6,25.3,5616,inactive
MED19,DRSC23458,1.58,9.74,6474,inactive

Only “infection score, replicate 2” (8 entries from above):
isoQC [DRSC28241]: 16
CG15641 [DRSC19677]: 1.77
imd [DRSC05928]: 11
imd [DRSC26032]: 3.64
Dnah3 [DRSC08130]: 0.79
Dnah3 [DRSC08513]: 1.23
Dnah3 [DRSC28789]: 9.32
CG16704 [DRSC00475]: 7.49
